# Patent US20160177369
# Biological target: his6-tagged recombinant CFP-SNAP-25-YFP chimera protein (CFP-SNAP-25 (141-206)-YFP), purified from E. coli, P60881
protein,measurement,value
botulinum neurotoxin E (BoNT/E) (protein) chain 1: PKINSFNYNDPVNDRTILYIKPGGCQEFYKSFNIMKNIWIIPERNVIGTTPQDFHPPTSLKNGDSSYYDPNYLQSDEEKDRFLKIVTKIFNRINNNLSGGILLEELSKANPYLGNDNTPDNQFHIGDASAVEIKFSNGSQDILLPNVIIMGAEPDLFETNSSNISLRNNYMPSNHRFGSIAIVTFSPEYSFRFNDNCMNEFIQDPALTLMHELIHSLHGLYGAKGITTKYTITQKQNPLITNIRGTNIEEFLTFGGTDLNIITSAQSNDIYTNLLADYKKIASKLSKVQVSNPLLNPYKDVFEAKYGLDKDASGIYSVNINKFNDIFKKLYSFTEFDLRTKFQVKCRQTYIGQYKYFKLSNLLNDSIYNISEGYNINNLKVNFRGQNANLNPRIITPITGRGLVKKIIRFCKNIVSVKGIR chain 2: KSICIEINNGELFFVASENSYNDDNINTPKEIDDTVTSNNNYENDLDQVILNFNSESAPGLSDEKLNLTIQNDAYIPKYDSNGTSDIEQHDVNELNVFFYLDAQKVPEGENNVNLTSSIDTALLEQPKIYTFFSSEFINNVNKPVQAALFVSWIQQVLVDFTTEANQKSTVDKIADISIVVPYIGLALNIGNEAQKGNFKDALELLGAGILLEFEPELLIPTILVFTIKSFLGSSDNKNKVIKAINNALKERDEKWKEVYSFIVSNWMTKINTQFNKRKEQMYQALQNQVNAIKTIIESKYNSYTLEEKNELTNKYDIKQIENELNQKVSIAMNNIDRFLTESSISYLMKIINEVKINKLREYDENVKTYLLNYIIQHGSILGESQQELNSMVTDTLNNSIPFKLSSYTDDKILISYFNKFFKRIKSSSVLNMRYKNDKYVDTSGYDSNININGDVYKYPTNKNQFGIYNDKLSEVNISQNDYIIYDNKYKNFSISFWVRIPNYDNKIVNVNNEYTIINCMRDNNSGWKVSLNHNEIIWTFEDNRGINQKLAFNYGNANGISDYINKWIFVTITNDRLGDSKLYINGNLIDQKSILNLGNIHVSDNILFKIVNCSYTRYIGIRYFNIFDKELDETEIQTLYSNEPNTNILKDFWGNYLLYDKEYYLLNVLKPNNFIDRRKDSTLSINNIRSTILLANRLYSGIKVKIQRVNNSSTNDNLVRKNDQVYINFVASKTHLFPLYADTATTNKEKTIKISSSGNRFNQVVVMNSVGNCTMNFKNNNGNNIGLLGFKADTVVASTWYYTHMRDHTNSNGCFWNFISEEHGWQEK,"detection sensitivity, 16 hours against 4 hours incubation",incubation for 16 hours slightly increased the detection sensitivity
same,"rate of FRET ratio decrease at various toxin concentrations, 300 nM sensor",higher toxin concentration resulted in faster decrease of the FRET ratio
